Results of unrelated studies side by side (data: NIAID ChemDB).

Common to all: growth or infection tests; agent: Herpes simplex virus 1; method: cytopathic effect; endpoint: EC50

ECn: concentration that inhibits the pathogen or its effect by n%. An empty or dashed field is not shown. a–b is a range or a potency band. Rows are shuffled and stem from different studies.

smiles,cell line,mutations,strain or isolate,result
N#Cc1cc([C@H]2C[C@H](O)[C@@H](CO)O2)c(F)cc1F,E6SM,,KOS/ACV-R,>400 µg/mL
NC1CSCCN2CCc3c([nH]c4ccccc34)[C@H]12,E6SM,,KOS,2 µg/mL
[N-]=[N+]=NCc1cn([C@H]2C[C@H](O)[C@@H](CO)O2)c(=O)[nH]c1=O,PRK,,VDO374,4 µg/mL
CCc1cn([C@H]2C[C@H](O)[C@@H](CO)O2)c(N)nc1=O,PRK,,F,>400 µg/mL
S=c1[nH]n2c(-c3cn(-c4ccccc4)nc3-c3ccccc3)nnc2s1,HEL,,KOS,>80 µg/mL
CC1(C)[C@@H](CO)CC[C@@]1(C)Cn1nnc2c(=O)[nH]cnc21,E6SM,,KOS,>400 µg/mL
Nc1ncnc2c1ncn2[C@@H]1O[C@H](CO)[C@@H](O)[C@H]1OP(=O)(O)OC[C@H]1O[C@@H](n2cnc3c(N)ncnc32)[C@H](OP(=O)(O)OC[C@H]2O[C@@H](n3cc(F)c(=O)[nH]c3=O)C[C@@H]2O)[C@@H]1O,PRK,,VMW1837 (TK-),2 µg/mL
O=c1[nH]c(=O)n(C2CC(CO)[C@@H](O)C2)cc1/C=C/Br,PRK,,McIntyre,0.07 µg/mL
O=C(Nn1c(-c2cn(-c3ccccc3)nc2-c2ccccc2)n[nH]c1=S)c1ccccc1,HEL,,KOS (TK-),>16 µg/mL
CCc1cn([C@H]2C[C@H](O)[C@@H](COP(=O)(O)O)O2)c(=O)[nH]c1=O,PRK,,McIntyre,1 µg/mL
Nc1nc2c(ncn2COC(CO)CO)c(=O)[nH]1,HEL,,HU-5,0.014 µM
Cc1cn([C@@]2(/C=C/C#N)C[C@H](O)[C@@H](CO)S2)c(=O)[nH]c1=O,HEL,,,>100 µg/mL
O=C(O)C(O[C@@H]1C=C[C@H](n2cc(F)c(=O)[nH]c2=O)C1)P(=O)(O)O,HEL,TK-deficient acyclovir-resistant,KOS,>250 µM
Nc1nc(=O)n(C2CC(O)C(CO)O2)cc1CCCl,PRK,,F,0.12 µg/mL
Nc1nc2c(ncn2COCCO)c(=O)[nH]1,VERO,,KOS,0.9 µg/mL
O=c1[nH]c(=O)n([C@H]2CC[C@@H](CO)O2)cc1/C=C/Br,PRK,,KOS,0.007 µg/mL
CC1(CO)CCC(Cn2nnc3c(Cl)ncnc32)C1(C)C,E6SM,,TK-/B2006,40 µg/mL
Cc1cc([C@@H]2C[C@H](O)[C@@H](CO)O2)c(F)cc1Cl,E6SM,,F,>400 µg/mL
CCCc1cn([C@H]2C[C@H](O)[C@@H](CO)O2)c(=O)[nH]c1=O,BSC-1,,KOS,15 µg/mL
CCCc1cn([C@H]2C[C@H](O)[C@@H](CO)O2)c(=S)[nH]c1=O,RPMI8226,,KOS (TK+),0.47 µM
O=c1[nH]c(=O)n([C@H]2C[C@H](O)[C@@H](CO)O2)cc1I,HSF,,KOS,0.4 µg/mL
CCc1cn([C@H]2C[C@H](O)[C@@H](CO)O2)c(=S)[nH]c1=O,RPMI8226,,A4-3 (TK-),>288.6 µM
OC[C@H]1O[C@@H](c2cc(C#CBr)c(F)cc2F)C[C@@H]1O,E6SM,,KOS ACV-R (TK-),>400 µg/mL
Nc1nc(F)nc2c1ncn2[C@@H]1C=C(CO)[C@@H](O)[C@H]1O,E6SM,,KOS,≥40 µg/mL
Nc1nc2c(ncn2N2CC[C@H](CO)[C@H]2CO)c(=O)[nH]1,VERO,,,>100 µg/mL
Nc1ncnc2c1ncn2[C@@H]1O[C@H](CO)[C@@H](O)[C@@H]1O,BALB/3T3,,KOS,7 µg/mL
Nc1ncnc2c1ncn2C[C@@H](CO)OCP(=O)(O)O,PRK,,McIntyre,1–3 µg/mL
O=c1[nH]c(=O)n([C@H]2C[C@H](O)[C@@H](CO)O2)cc1I,PRK,,KOS,0.2 µg/mL
O=c1[nH]c(=O)n([C@H]2C[C@H](O)[C@@H](CO)O2)cc1/C=C/Br,PRK,,KOS,0.02 µg/mL
OC[C@H]1O[C@@H](c2cc(Cl)c(F)cc2F)C[C@@H]1O,E6SM,,KOS/ACV-R,>400 µg/mL
Nc1nc(=S)n([C@@H]2O[C@H](CO)[C@@H](O)[C@@H]2O)cc1/C=C/c1ccccc1,RPMI8226,,KOS (TK+),>258.7 µM
CC=NC(=N)c1nc(-c2cccc(C)c2)n(COCCO)n1,E6SM,,VMW 1837,>10 µg/mL
O=Cc1cn([C@H]2C[C@H](O)[C@@H](CO)O2)c(=O)[nH]c1=O,PRK,,VDX500,0.4 µg/mL
CC1=Nn2c(nnc2-c2cn(-c3ccccc3)nc2-c2ccccc2)SC1,HEL,,KOS (TK-),>16 µg/mL
Nc1ccn([C@@H]2C[C@H](CO)[C@@H](O)[C@H]2O)c(=O)n1,PRK,,B2006 (TK-),4 µg/mL
CSCc1cn([C@H]2C[C@H](O)[C@@H](CO)O2)c(=O)[nH]c1=O,PRK,,VEW257,20 µg/mL
CC=NC(=N)c1nc(-c2ccc(OC)cc2)n(COCCO)n1,E6SM,,VMW 1837,>200 µg/mL
Nc1nc(=O)c(/C=C/Br)cn1[C@H]1C[C@H](O)[C@@H](CO)O1,PRK,,McIntyre,70 µg/mL
O=c1[nH]c(=O)n([C@H]2C[C@@H](CO)[C@H](O)C2)cc1I,PRK,,F,7 µg/mL
Nc1nc2c(ncn2[C@H]2CO[C@@H](CO)C2)c(=O)[nH]1,E6SM,,VMW1837 (TK-),150 µg/mL
O=c1c2ncn(COC(CO)CO)c2nc2[nH]c(-c3ccccc3)cn12,E6SM,,VMW1837 (TK-),0.5 µg/mL
N#CC1=CSc2nnc(-c3cn(-c4ccccc4)nc3-c3ccccc3)n2N=C1N,HEL,,KOS (TK-),>80 µg/mL
O=c1[nH]c(=O)n([C@H]2C[C@@H](CO)[C@H](O)C2)cc1/C=C/Br,PRK,,KOS,0.7 µg/mL
Nc1ccn([C@@H]2O[C@H](CO)[C@@H](O)[C@@H]2O)c(=O)n1,PRK,,KOS,0.05 µg/mL
OC[C@H]1O[C@@H](c2cc(/C=C/I)c(F)cc2F)C[C@@H]1O,E6SM,,VMW1837 (TK-),>400 µg/mL
NC1CSCON2CCc3c([nH]c4ccccc34)[C@H]12,PRK,,B2006 (TK-),0.7 µg/mL
Nc1ncnc2c1ncn2C1SC[C@H](CO)[C@H]1CO,VERO,,,>100 µg/mL
Nc1nc(Cl)c2ccn([C@H]3CO[C@@H](CO)C3)c2n1,E6SM,,VMW1837 (TK-),>400 µg/mL
NC1CCCON2CCc3c([nH]c4ccccc34)[C@H]12,PRK,,KOS,2 µg/mL
CC1(CO)CCC(Cn2nnc3c(=O)[nH]cnc32)C1(C)C,E6SM,,TK-/TK+ (VMW 1837),>200 µg/mL
C=Cc1cn([C@@H]2O[C@H](CO)[C@@H](O)[C@@H]2O)c(=S)nc1N,RPMI8226,,A4-3 (TK-),>266.3 µM
Nc1ccn(C[C@@H](CO)OCP(=O)(O)O)c(=O)n1,HEL,,HU-5,3.32 µM
Nc1nc(=S)n([C@@H]2O[C@H](CO)[C@@H](O)[C@@H]2O)cc1/C=C/Br,RPMI8226,,A4-3 (TK-),>258.7 µM
O=c1[nH]c(=O)n(C2CC(CO)[C@H](O)C2)cc1I,PRK,,KOS,0.1 µg/mL
CC=NC(=N)c1nc(-c2ccccc2)n(C/C=C/c2ccccc2)n1,E6SM,,VMW 1837,>4 µg/mL
Nc1ncnc2c1ncn2[C@@H]1O[C@H](CO)[C@@H](O)[C@H]1OP(=O)(O)OC[C@H]1O[C@@H](n2cnc3c(N)ncnc32)[C@H](OP(=O)(O)OC[C@H]2O[C@@H](n3cc(/C=C/Br)c(=O)[nH]c3=O)C[C@@H]2O)[C@@H]1O,PRK,,VMW1837 (TK-),>100 µg/mL
Nc1nc2c(ncn2COCCO)c(=O)[nH]1,PRK,,McIntyre,0.05 µg/mL
O=C(O)C(O[C@@H]1CC[C@H](n2cc(F)c(=O)[nH]c2=O)C1)P(=O)(O)O,HEL,TK-deficient acyclovir-resistant,KOS,>250 µM
O=c1[nH]c(=O)n([C@H]2C[C@H](O)[C@@H](CO)O2)cc1/C=C/Br,Primary rabbit kidney cells,,TK-,>10 µg/mL
Cc1cn(N2C[C@H](CO)[C@H]2CO)c(=O)[nH]c1=O,VERO,,,>100 µg/mL
O=c1[nH]c(=O)n(C2CC(O)C(CO)O2)cc1CCCCl,PRK,,KOS,0.2 µg/mL
CC1(C)[C@@H](CO)CC[C@@]1(C)Cn1cnc2c(N)ncnc21,E6SM,,KOS,>400 µg/mL
Cc1cn(N2CC[C@H](CO)[C@H]2CO)c(=O)[nH]c1=O,VERO,,,>100 µg/mL
O=c1[nH]c(=S)n([C@@H]2O[C@H](CO)[C@@H](O)[C@@H]2O)cc1CCO,RPMI8226,,A4-3 (TK-),>244.8 µM
Cc1cc([C@H]2C[C@H](O)[C@@H](CO)O2)c(Cl)cc1F,E6SM,,KOS/ACV-R,>400 µg/mL
O=c1[nH]c(=O)n([C@H]2C[C@H](O)[C@@H](CO)O2)cc1/C=C/Br,HEL,,HU-5,0.023 µM
CC=NC(=N)c1nc(-c2ccc(C)cc2)n(C/C=C/c2ccccc2)n1,E6SM,,KOS,>4 µg/mL
CC1(CO)CCC(Cn2nnc3c(N)ncnc32)C1(C)C,E6SM,,TK-/TK+ (VMW 1837),70 µg/mL
CC(O)c1cn([C@@H]2O[C@H](CO)[C@@H](O)[C@@H]2O)c(=S)nc1N,RPMI8226,,KOS (TK+),>244.8 µM
[N-]=[N+]=NC(CBr)c1cc([C@H]2C[C@H](O)[C@@H](CO)O2)c(F)cc1F,E6SM,,McIntyre,>400 µg/mL
CC1(C)[C@@H](CO)CC[C@@]1(C)Cn1nnc2c(N)ncnc21,E6SM,,KOS,>400 µg/mL
Nc1ccn(C2OC[C@H](CO)[C@H]2CO)c(=O)n1,VERO,,,>100 µg/mL

9 of the rows above, restated:

smiles	cell line	mutations	strain or isolate	result
Nc1ccn(C[C@@H](CO)OCP(=O)(O)O)c(=O)n1	HEL		HU-5	3.32 µM
O=c1c2ncn(COC(CO)CO)c2nc2[nH]c(-c3ccccc3)cn12	E6SM		VMW1837 (TK-)	0.5 µg/mL
CC1(CO)CCC(Cn2nnc3c(Cl)ncnc32)C1(C)C	E6SM		TK-/B2006	40 µg/mL
CC(O)c1cn([C@@H]2O[C@H](CO)[C@@H](O)[C@@H]2O)c(=S)nc1N	RPMI8226		KOS (TK+)	>244.8 µM
Nc1nc2c(ncn2N2CC[C@H](CO)[C@H]2CO)c(=O)[nH]1	VERO			>100 µg/mL
S=c1[nH]n2c(-c3cn(-c4ccccc4)nc3-c3ccccc3)nnc2s1	HEL		KOS	>80 µg/mL
CC=NC(=N)c1nc(-c2ccc(OC)cc2)n(COCCO)n1	E6SM		VMW 1837	>200 µg/mL
Nc1nc(=S)n([C@@H]2O[C@H](CO)[C@@H](O)[C@@H]2O)cc1/C=C/Br	RPMI8226		A4-3 (TK-)	>258.7 µM
Nc1ncnc2c1ncn2[C@@H]1O[C@H](CO)[C@@H](O)[C@H]1OP(=O)(O)OC[C@H]1O[C@@H](n2cnc3c(N)ncnc32)[C@H](OP(=O)(O)OC[C@H]2O[C@@H](n3cc(/C=C/Br)c(=O)[nH]c3=O)C[C@@H]2O)[C@@H]1O	PRK		VMW1837 (TK-)	>100 µg/mL